For one compound, viability results are on record in PubChem BioAssay AID2253 (Southern Research Specialized Biocontainment Screening …, 2010).

The entries are a selection whose mix differs from that of the whole data set. Entries with a potency or affinity are not part of this list. Active and inactive are the calls of the source. How the calls were made is not given here.

This assay in a line: THP-1 cell cytotoxicity, dose response, cytotoxicity control for Salmonella PhoP regulon inhibitors, S. typhimurium screen hits (AID 2253). The conditions noted are these: THP-1 viability, CellTiter-Glo luminescence, 72 h; at 50 µM (top of the series). A general note: ATP-based viability assays read luminescence as a measure of living cells.
As for `CC1=NCCc2c1[nH]c1ccccc21.O=[N+]([O-])c1cc([N+](=O)[O-])c(O)c([N+](=O)[O-])c1`, the viability (commonly the share of living cells, or the viability signal relative to a control) is inactive: 89.7%.
